Article PMC5465072 (Scientific Reports, 2017)
Strings that start with PEPTIDE1 are HELM notation: dots part the residues, brackets hold end groups and non-standard residues.

Experiment: general procedure: Fmoc solid-phase peptide synthesis; Wang resin preloaded with the first amino acid residue; DIC/HOBt
Settings: whole synthesis; for isolated yield: scale of the general procedure 0.1 mmol

Row | Substance | isolated mass | isolated yield
1 | PEPTIDE1{C.L.R.F.T}$$$$V2.0 | 54 mg | 34%
2 | PEPTIDE1{C.L.R.P.T}$$$$V2.0 | 21.0 mg | 15%
3 | PEPTIDE1{C.L.R.[3-NO2-Y].T}$$$$V2.0 | 66 mg | 38%
4 | PEPTIDE1{C.L.R.[4-CN-F].T}$$$$V2.0 | 60 mg | 36%
5 | PEPTIDE1{C.L.R.[4-Cl-F].T}$$$$V2.0 | 19 mg | 11%
6 | PEPTIDE1{C.L.R.[4-NO2-F].T}$$$$V2.0 | 65 mg | 40%
7 | PEPTIDE1{C.L.R.[Phg].T}$$$$V2.0 | 55 mg | 35%
8 | PEPTIDE1{C.L.R.[dF].T}$$$$V2.0 | 52 mg | 33%
9 | PEPTIDE1{C.L.R.[hPhe].T}$$$$V2.0 | 63 mg | 37%
10 | PEPTIDE1{C.M.N.H.F.P.A}$$$$V2.0 | 56 mg | 27%
11 | PEPTIDE1{H.P.C.N.A.M.F}$$$$V2.0 | 45 mg | 22%
